Test results as given in US20130289246A1 (VANDERBILT UNIVERSITY, published 2013).

Legend:
[1] = biological target: recombinant soluble trimeric 1918 H1 HA (A/South Carolina/1/1918, wild type) (Influenza A virus A/South …, UniProt Q9WFX3 18-529); experiment: ELISA, supernate
[2] = biological target: HA of A/Singapore/1/1957 (H2N2), on VLP (Influenza A virus (H2N2)); experiment: cell-based or functional assay
[3] = biological target: HA of A/Japan/305+/1957 (H2N2), wild type, on VLP (Influenza A virus A/Japan/305+/1957 …); experiment: cell-based or functional assay
[4] = biological target: recombinant soluble 1957 H2 HA (A/Japan/305+/1957) (Influenza A virus A/Japan/305+/1957 …); experiment: ELISA, supernate
soluble 2004 H5 HA = soluble 2004 H5 HA (Influenza A virus (H5N1, 2004)); experiment: ELISA, supernate
[5] = biological target: soluble 1999 H1 HA (seasonal 1999 H1N1) (Influenza A virus (H1N1, 1999)); experiment: ELISA, supernate
[6] = biological target: T1, recombinant soluble trimeric 2009 H1 HA (A/California/04/2009, wild type) (Influenza A virus A/California/04/2009 …); experiment: ELISA, supernate
T1 construct: extracellular domain

B1: mAb 6J24 (antibody, V domains shown)
VH: EVQLVESGGGLVQPGRSLRLSCVGSGFNFDGYAMQWVRQVPGKGLEWVSGISWHSDSTGYADSVRGRFTISRDNAKNSLYLQMDSLRPEDTAFYYCGKSIGHVGGSYRHPIDYWGQGTLVTVS
VL: DIQLTQSPSSLSASVGDRVTITCRASQGITDYLAWYQQKPGTIPKLLIYAASTLQSGVPSRFSGGGYGTDFTLTISSLQPEDVATYYCQKYNSAPLTFGGGTKVEIKR
OD [1]: 0.083 OD

B2: mAb 7A13 (antibody, V domains shown)
VH: QVQLQESAPGLVKPSGTLSLTCAVSGASLSSSDWWTWVRQPPGKGLEWIGEIHHGGSTNSNPSLQSRVTISIDKSKKQFSLKLTSVTVADTAVYYCARAPGADAGPYSENIHHWGQGTLVTVS
VL: QLVLTQSPSASASLGASVKLTCTLSSRHSDYAIGWHQQQPGKGPRYLMKLNPDGSHTKGDGIPDRFSGSSSGAERYLTISNLLSEDEADYYCQTWGTGIQVFGGGTRLTVIS
HAI activity [2]: > 20 µg/mL

B3: mAb 11J19 (antibody, V domains shown)
VH: EVQLQESGPGLVKPSETLSLSCTVSGGSITRSSYYWGWIRQPPGKGLEWIGNIYYSGTTYYNPSLKSRVTISVDTSKNQFSLKLSSVTAADTAVYYCARLYGSGLDYWGQGTLVTVS
VL: DIQLTQSPSFLSASVGDRVTITCRASQGSSRYVAWYQQKPGKAPKLLILAASTLHTGVPSRFSGSGSGTEFTLTISSLQPEDFATYSCQQLNGFLLTFGGGTKVEIKR
HAI activity [2]: > 20 µg/mL

B4: mAb 2G1 (antibody, V domains shown)
VH: EVQLVESGAEVKKPGSSVKVSCKASGGTFITHVFTWVRQAPGQGLEWVGGFIAIFGTSNYAQKFQGRVTITADESTSTAYMELTSLTSEDTAVYYCARGISGSYGWFDPWGQGTLVTVS
VL: DIQLTQSPSSLSASVGDRVTITCQASQDIRKYLNWYQQKPGKAPNLLIYDASNVKTGVPSRFRGSGSGTDFTFTISSLQPEDIATYYCQQYDNLPITFGQGTRLEIKR
HAI activity [3]: < 0.2 µg/mL

B5: mAb 8F8 (antibody, V domains shown)
VH: EVQLLESGGGVVQPGRSLRLSCAASGFMFSSYVMHWVRQPPGKGLEWVAVIWYDGSKTYFADSMRGRLTVSRDNSKNALYLQMNRLRAEDTAVYYCARQQDSGYSGPEVSYYSHYGMDVWGQGTTVIVS
VL: QSVLTQSPSASGTPGRAITISCSGSSSNIGSNPVNWYQQLPGAAPKLLIYADEHRPSGVPDRFSGPKSGTSASLAISGLQSEDEADYYCAAWDDSLSGPAVVFGGGTKLTVLG
HAI activity [2]: 0.05 µg/mL
OD [4]: 1.02 OD
OD (soluble 2004 H5 HA): 0.074 OD
OD [5]: 0.081 OD
OD [6]: 0.081 OD
HAI activity [3]: < 0.2 µg/mL
